{"source": "paper PMC6072100", "about": "“Exploring the links between peptoid antibacterial activity and toxicity” (MedChemComm, 2017)", "assay_type_in_all_cases": "cell-based", "key": {"[1]": {"system": "Staphylococcus aureus (3R7089 strain Oxford/ATCC9144)", "protocol": "(§1) Escherichia coli K-12 wild-type strain (W3110/ATCC27325, F^–, λ^–, rpoS(Am), rph-1, Inv(rrnD-rrnE)), Pseudomonas aeruginosa PA01 (ATCC 15692) Staphylococcus aureus (3R7089 strain Oxford/ATCC9144) and Staphylococcus epidermidis (laboratory strain from clinical isolate) were selected for bacteriological studies as representative Gram-negative (E. coli and P. aeruginosa) and Gram-positive (S. aureus and S. epidermidis) species. Bacterial cultures were prepared by streaking bacterial strains onto LB agar plates with an inoculation loop and incubated overnight at 37 °C. A single colony was selected and placed in 5 mL of Iso-sensitest broth (Oxoid, ThermoScientific) and incubated with shaking for 16–18 h at 37 °C to provide liquid cultures for testing.\n(§2) MIC values were obtained according to the protocol described by J. M. Andrews et al.[58] and were conducted in 96-well plates (Sarstedt). Bacteria were grown from overnight cultures in Iso-sensitest broth to an A650nm of 0.07 equivalent to a 0.5 MacFarland standard (240 μM BaCl2 in 0.18 M H2SO4). This culture was diluted ten-fold with Iso-sensitest broth before use. Peptoids were initially dissolved in DMSO (5 mM) and diluted further in Iso-sensitest broth to achieve a concentration range of 4–200 μM using 2-fold serial dilutions. 50 μl of inoculum and 50 μl of peptoid solution were added to each test well (final concentration range of 2–100 μM). Experiments were performed in triplicate. A positive control for bacterial growth contained only the inoculum and Iso-sensitest broth. Other controls contained the inoculum and serial dilutions of ampicillin (from 250 μg mL^–1 to 2 μg mL^–1), serial dilutions of DMSO and the inoculum to confirm no inhibitory effect on bacterial growth, and Iso-sensitest broth alone as a sterile control. […] Quantitative data was attained from absorbance values using a Biotek Synergy H4 plate reader.\n(§3) Antibacterial MIC determination\nas §1, with “(W3110 / ATCC27325, F-, λ-,” for “(W3110/ATCC27325, F^–, λ^–,”, “Oxford / ATCC9144)” for “Oxford/ATCC9144)”, “°C.” for “°C. A single colony was selected and placed in 5 mL of Iso-sensitest broth (Oxoid, ThermoScientific) and incubated with shaking for 16–18 h at 37 °C to provide liquid cultures for testing.”\n(§4) A single colony was selected and placed in 5 mL of Iso-sensitest broth (Oxoid, ThermoScientific) and incubated with shaking for 16-18 h at 37 °C to provide liquid […]\n(§5) MIC values were obtained according to the protocol described by J. M. Andrews et al.1 and were conducted in 96-well plates (Sarstedt). Bacteria were grown from overnight cultures in Iso-sensitest broth to an A650nm of 0.07 equivalent to a 0.5 MacFarland standard (240 μM BaCl2 in 0.18 M H2SO4). This culture was diluted ten-fold with Iso-sensitest broth before use. Peptoids were initially dissolved in DMSO (5 mM) and diluted further in Iso-sensitest broth to achieve a concentration range of 4 – 200 µM using 2-fold serial dilutions. 50 μl of inoculum and 50 μl of peptoid solution were added to each test well (final concentration range of 2 – 100 µM). Experiments were performed in triplicate. A positive control for bacterial growth contained only the inoculum and Iso-sensitest broth. Other controls contained the inoculum and serial dilutions of ampicillin (from 250 µg/mL to 2 µg/mL), serial dilutions of DMSO and the inoculum to confirm no inhibitory effect on bacterial growth, and Iso-sensitest broth alone as a sterile control. […]\n(§6) growth after incubation at 37 °C for 16 h with shaking. Quantitative data was attained from absorbance values using a Biotek Synergy H4 plate reader."}, "[2]": {"system": "Staphylococcus epidermidis (laboratory strain from clinical isolate)", "protocol": "as §1, §2, §3\nas §1, with “(W3110 / ATCC27325, F-, λ-,” for “(W3110/ATCC27325, F^–, λ^–,”, “Oxford / ATCC9144)” for “Oxford/ATCC9144)”, “°C.” for “°C. A single colony was selected and placed in 5 mL of Iso-sensitest broth (Oxoid, ThermoScientific) and incubated with shaking for 16–18 h at 37 °C to provide liquid cultures for testing.”\nas §4, §5, §6"}, "[3]": {"system": "Pseudomonas aeruginosa PA01 (ATCC 15692)", "protocol": "as §1, §2, §3\nas §1, with “(W3110 / ATCC27325, F-, λ-,” for “(W3110/ATCC27325, F^–, λ^–,”, “Oxford / ATCC9144)” for “Oxford/ATCC9144)”, “°C.” for “°C. A single colony was selected and placed in 5 mL of Iso-sensitest broth (Oxoid, ThermoScientific) and incubated with shaking for 16–18 h at 37 °C to provide liquid cultures for testing.”\nas §4, §5, §6"}, "[4]": {"conditions": "average of selectivity to HaCaT and HepG2, selectivity = toxicity/activity"}}}
{"substance": "(NhArgNmfbNmfb)4 [Peptoid 36]", "values": [{"measurement": "Selectivity Index HaCaT, S. aureus", "setting": "[1]; ED50 HaCaT / MIC S. aureus", "value": 14}, {"measurement": "Selectivity Index HepG2, S. aureus", "setting": "[1]; ED50 HepG2 / MIC S. aureus", "value": 11}, {"measurement": "Average selectivity S. aureus", "setting": "[1]; [4]", "value": 12}, {"measurement": "Selectivity Index HaCaT, S. epidermidis", "setting": "[2]; ED50 HaCaT / MIC S. epidermidis", "value": 14}, {"measurement": "Selectivity Index HepG2, S. epidermidis", "setting": "[2]; ED50 HepG2 / MIC S. epidermidis", "value": 11}, {"measurement": "Average selectivity S. epidermidis", "setting": "[2]; [4]", "value": 12}, {"measurement": "Selectivity Index HaCaT, P. aeruginosa", "setting": "[3]; ED50 HaCaT / MIC P. aeruginosa", "value": 2}, {"measurement": "Selectivity Index HepG2, P. aeruginosa", "setting": "[3]; ED50 HepG2 / MIC P. aeruginosa", "value": 2}, {"measurement": "Average selectivity P. aeruginosa", "setting": "[3]; [4]", "value": 2}]}
